Source: publication PMC8383118
The exact form of at least one protein or probe is not confirmed.

System: ComR S. mutans + XIP S. mutans
Experiment: EMSA
Settings: 8 uM XIP, 100 ng FAM-DNA, 15-30 min incubation, 5% native PAGE, 100 V, 50 min, 4 C, recombinant protein, protein details: His-tag removed with thrombin, label: 5' FAM (reverse primer), probe letters rebuilt from the primers and the genome

CCTGTTATTCTCCTTTCTTTTTGATATCATTCATTATAAATGATCCTTCAAAAAAAGAACAGGACATTTATGTCCCGTTCTGAGAATCTTTTTGCCATTCTTTCTCCAAATTTTCTCTTAAATTAATGTTTTCTGTTAACTGGGCAAATAAGATAGCAGCATCATAGCTCTTTTTAGCTTCCGCATAATCTTTTTCAACAAATAAATGATGCTTCCATGTCAGAAGATTAACAATAGGCTTTTTTTGAAAATCATGAGTTCTATCCATGATTTTATTGCTGACAGCAATAAGCTGCTTAACAAAATCATATTTTTTCAATTCTAAGAGGAGTCCAAAATTATTCAATAAAACATTATTTAAAACGAAAAGATCTTCCAATGGAAGGCAGTCTACCTGCTT (double strand) [comS promoter probe (PcomS)]
binding result (4 uM ComR, 100 ng DNA, no Prx): binds
binding result (Prx D32A (P3) present, not in complex, no inhibition in any of the three orders of addition): binds
